Source: patent publication US20230272054A1, “COMBINATION THERAPIES FOR THE TREATMENT AND PREVENTION OF BIOFILMS” (priority 2020, published 2023)
Numbering of substitutions follows the chain as printed. Numbers in names are those of the source.

B1: rHMGB1: recombinant HMGB1 derived from a human, expressed and purified in E. coli, SEQ ID NO: 51; comparator to mHMGB1 (protein, listed as Homo sapiens)
chain: MGKGDPKKPRGKMSSYAFFVQTCREEHKKKHPDASVNFSEFSKKCSERWKTMSAKEKGKFEDMAKADKARYEREMKTYIPPKGETKKKFKDPNAPKRPPSAFFLFCSEYRPKIKGEHPGLSIGDVAKKLGEMWNNTAADDKQPYEKKAAKLKEKYEKDIAAYRAKGKPDAAKKGVVKAEKSKKKKEEEEGEEDEEDEEEEEDEEDEDEEEDDDDE
B2: mHMGB1: recombinant human HMGB1 with engineered single amino acid mutation C45S, SEQ ID NO: 52 (protein)
chain: B1 chain with C45S
modifications: mHMGB1 (C45S)

Columns and labels:
[1] = tested on: macrophages; experiment: Phagocytosis assay, pHrodo red E. coli bioparticles; details: 5 μg/ml protein 2 h, then pHrodo red E. coli bioparticles 2 h
[2] = tested on: B. cenocepacia; experiment: Murine model of lung infection by B. cenocepacia, bacterial burden; details: 10^7 CFU i.t.; for bacterial burden within the lungs (BAL CFU), treatment: 0.2 nmol i.t. at 24 hpi, 72 hpi

Molecule | phagocytic capacity of macrophages [1] | bacterial burden within the lungs (BAL CFU), treatment [2] | bacterial burden within the lungs (BAL CFU), prevention ([2]; 0.2 nmol i.t. at time of challenge, 18 hpi)
B1 | slight reduction in phagocytosis | significantly facilitated the clearance of B. cenocepacia from the lungs | 
B2 |  | significantly facilitated the clearance of B. cenocepacia from the lungs | significantly facilitated the clearance of B. cenocepacia from the lungs
